Compound potency records, mixed from different reports. Data source: NIAID ChemDB in PubChem.

Common to all: tests in culture; species: HIV-1

Blank or dashed fields: not listed here.

compound,read by,cell line,mutations,strain,endpoint,value
c1cc2nc(Cc3nc4ccc(C5=N[C@@H]6CCCC[C@@H]6N5)cc4[nH]3)[nH]c2cc1C1=N[C@@H]2CCCC[C@@H]2N1,cytopathic effect / propidium iodide,MT-4,,IIIB,EC50,4.8 µM
Nc1nc2c(ncn2[C@H]2CO[C@@H](CO)O2)c(=O)[nH]1,cytopathic effect / XTT,MT-2,RT-A98S F116Y Q151M T215Y,,EC50,17.5 µM
c1cc2nc(Cc3nc4ccc(C5=N[C@H]6CCCC[C@@H]6N5)cc4[nH]3)[nH]c2cc1C1=N[C@H]2CCCC[C@@H]2N1,cytopathic effect / propidium iodide,MT-4,,IIIB,EC50,3 µM
CCN1C[C@H](C)N2C(=C(O)C3C(=O)N4Cc5ccc(F)cc5OCCCC(=O)N5CCN(CC5)C(=N4)C32)C1=O,,MT-4,,LAII(IIIB),EC50,3.07 µM
O=C1c2ccccc2N(Cc2ccccc2)S(=O)(=O)N1Cc1ccc(Cl)cc1,p24,MT-4,,IIIB,EC50,18.4 µM
CCc1c(Cc2cc(C)cc(C)c2)n(Cc2ccc(C#CCF)cc2)c(=O)[nH]c1=O,MTT,MT-4,K103N + Y181C,IIIB,EC50,>2 µM
O=C(NCc1ccccc1)c1cc2cc3c(cc2[nH]1)OCO3,cytopathic effect / MTT,CEM,,,EC50,>200 µM
NC(=NC1CCCCC1)c1ccc2nc(Cc3nc4ccc(C(N)=NC5CCCCC5)cc4[nH]3)[nH]c2c1,cytopathic effect / propidium iodide,MT-4,,IIIB,EC50,2.6 µM
O=C1c2ccccc2N(Cc2ccccc2-c2ccccc2)S(=O)(=O)N1Cc1ccccc1,p24,CEM + CEM-SS,,IIIB,EC50,2 µM
CCc1c(Cc2cc(C)cc(C)c2)n(Cc2ccc(I)cc2)c(=O)[nH]c1=O,MTT,MT-4,Y181C,Clinical isolates,EC50,3 µM
CCCN1CC[C@H](O)[C@@H](O)C1,cytopathic effect,CEM + CEM-SS,,BRU,EC50,>100 µg/mL
Nc1nc2c(ncn2[C@@H]2C[C@@H](F)[C@H](CO)O2)c(=O)[nH]1,cytopathic effect / MTT,CEM + CEM-SS,,,EC50,>100 µM
Cc1cn([C@H]2C[C@H](N=[N+]=[N-])[C@@H](CO)O2)c(=O)[nH]c1=O,p24 / ELISA,H9,,IIIB,EC50,0.045 µM
Nc1nc(N)c2ncn([C@H]3CO[C@@H](CO)O3)c2n1,cytopathic effect / XTT,MT-2,RT-L74V,,EC50,38 µM
CCN1C[C@H](C)N2C(=C(O)C3C(=O)N4Cc5ccc(F)cc5OCCCCS(=O)(=O)N(CC)C(=N4)C32)C1=O,,MT-4,,LAII(IIIB),EC50,2.2 µM
O=C(NCCCN1CCN(CCCNC(=O)c2cc3cc(O)c(O)cc3[nH]2)CC1)c1cc2cc(O)c(O)cc2[nH]1,cytopathic effect / MTT,CEM,,,EC50,>88 µM
COc1ccc([C@H](O)[C@H](CO)Oc2ccc(C(=O)CCO)cc2OC)cc1OC,cytopathic effect,,,,EC50,2.78 µg/mL
CC(C)(C)C1=NC(c2ccccc2)(C(F)(F)F)NC(=O)N1,p24 / ELISA,PBMC,,BaL,EC50,0.1323 µM
C=CCOCn1c(Cc2ccccc2)c(CO)c(=O)[nH]c1=O,MTT,MT-4,K103N + Y181C,IIIB,EC50,>100 µM
CCCCCCCCCCCCOP(=O)(OCC(=O)OCC)OC[C@H]1O[C@@H](n2cc(C)c(=O)[nH]c2=O)C[C@@H]1N=[N+]=[N-],p24,C8166,,RF,EC50,3 µM
Nc1nc(NC2CC2)c2ncn([C@H]3C=C[C@@H](CO)C3)c2n1,cytopathic effect / XTT,C8166,,RT-L74V M184V,EC50,20 µM
COc1cccc2ccc(-c3nnc(-c4ccc5c(c4)OCO5)o3)nc12,luminescence,TZM-bl,,VB59,EC50,119 µM
CCOC(=O)c1nnsc1NCc1ccccc1N,MTT,MT-4,,IIIB,EC50,>290 µM
O=C(NCc1ccccc1)c1cc2cc(O)c(O)cc2[nH]1,cytopathic effect / MTT,CEM,,,EC50,>29 µM
CC1(C)CN=C(c2ccc3nc(Cc4nc5ccc(C6=NCC(C)(C)N6)cc5[nH]4)[nH]c3c2)N1,cytopathic effect / propidium iodide,MT-4,,IIIB,EC50,6.5 µM
CCCOP(=O)(OCC(=O)OCC)OC[C@H]1O[C@@H](n2cc(C)c(=O)[nH]c2=O)C[C@@H]1N=[N+]=[N-],p24,C8166,,RF,EC50,0.5 µM
Cc1ccc(CSc2cc(NC(=S)c3ccoc3C)ccc2Cl)cc1,syncytia,CEM,,,EC50,0.312 µM
COc1cccc2ccc(-c3nnc(-c4cccc(F)c4)o3)nc12,luminescence,TZM-bl,,UG070,EC50,70.71 µM
CCN1C[C@H](C)N2C(=C(O)C3C(=O)N4Cc5cc(Cl)c(F)cc5OCCCCCNC(=O)C(=N4)C32)C1=O,,MT-4,,LAII(IIIB),EC50,5.93 µM
C[C@@H]1CC[C@]2(C(=O)O)CC[C@]3(C)C(=CC[C@@H]4[C@@]5(C)CC[C@H](O)C(C)(C)[C@@H]5CC[C@]43C)[C@@H]2[C@]1(C)O,p24 / ELISA,H9,,IIIB,EC50,3 µM
Cc1occc1C(=S)Nc1ccc(Cl)c(OCCC(C)C)c1,syncytia,CEM,,,EC50,0.019 µM
CC1(C)Oc2ccc3ccc(=O)oc3c2[C@@H](OC(=O)C23CCC(C)(C(=O)O2)C3(C)C)[C@H]1OC(=O)C12CCC(C)(C(=O)O1)C2(C)C,p24 / ELISA,H9,,IIIB,EC50,0.00041 µM
C#CCOCn1c(Cc2ccccc2)c(CO)c(=O)[nH]c1=O,MTT,MT-4,,,EC50,9 µM
O=C1c2ccccc2N(Cc2ccc(Cl)c(Cl)c2)S(=O)(=O)N1Cc1ccccc1,p24,MT-4,,IIIB,EC50,>125 µM
NCC(=O)N1CCC[C@H]1C(=O)NCC(N)=O,p24,MT-2,,LAV,EC50,<20 µM
CCOC(=O)c1cc(NC(=S)c2ccoc2C)ccc1C,syncytia,CEM,RT-Y181C,IIIB,EC50,0.06 µg/mL
CN1CC[C@H](O)[C@@H](O)C1,cytopathic effect,CEM + CEM-SS,,BRU,EC50,>100 µg/mL
COc1cccc2ccc(-c3nnc(-c4ccc(N(C)C)cc4)o3)nc12,luminescence,TZM-bl,,UG070,EC50,38.83 µM
CCc1c(Cc2cc(C)cc(C)c2)n(Cc2ccc(C#CCO)cc2)c(=O)[nH]c1=O,MTT,MT-4,Y181C,Clinical isolates,EC50,0.1 µM
C[C@]1(O)CCN(Cc2ccccc2)C[C@@H]1O,cytopathic effect,CEM + CEM-SS,,BRU,EC50,>100 µg/mL
CC(=O)O[C@@H]1[C@H](OC(=O)CC(C)C)c2c(ccc3ccc(=O)oc23)OC1(C)C,p24 / ELISA,H9,,IIIB,EC50,1.3 µM
O=C1c2ccccc2N(CC2CCCCC2)S(=O)(=O)N1Cc1ccccc1,p24,CEM + CEM-SS,,IIIB,EC50,3 µM
C[C@H]1[C@H](C)CC[C@]2(C(=O)O)CC[C@]3(C)C(=CC[C@@H]4[C@@]5(C)CC[C@H](OC(=O)CC(C)(C)C(=O)O)C(C)(C)[C@@H]5CC[C@]43C)[C@H]12,p24 / ELISA,H9,,IIIB,EC50,2.1 µM
COc1ccc(NC(=O)/C=C/c2ccc3cccc(OC)c3n2)cc1,luminescence,TZM-bl,,UG070,EC50,10.8 µM
CC1=C(C(=S)Nc2ccc(Cl)c(/C=N/OC(C)(C)C)c2)CCO1,syncytia,CEM,RT-L100I,IIIB,EC50,0.065 µg/mL
O=C(O)c1cc(-n2cccc2)ccc1Cl,luciferase / cell fusion,PBMC/5.25M7,,93IN101 R5 CLADE C,EC90,142 µM
CCCOP(=O)(OCC(=O)OCC)OC[C@H]1O[C@@H](n2cc(C)c(=O)[nH]c2=O)C[C@@H]1OC(C)=O,p24,C8166,,RF,EC50,>100 µM
CCN1C[C@H](C)N2C(=C(O)C3C(=O)N4Cc5cc(F)c(F)cc5OCCCCS(=O)(=O)N(C)C(=N4)C32)C1=O,,MT-4,,LAII(IIIB),EC50,1.1 µM
CCCCN1CC[C@H](O)[C@@H](O)C1,cytopathic effect,CEM + CEM-SS,,BRU,EC50,>100 µg/mL
CCC1CN=C(c2ccc3nc(Cc4nc5ccc(C6=NCC(CC)N6)cc5[nH]4)[nH]c3c2)N1,cytopathic effect / propidium iodide,MT-4,,IIIB,EC50,6.7 µM
OCCN1CC[C@H](O)[C@@H](O)C1,cytopathic effect,CEM + CEM-SS,,BRU,EC50,12 µg/mL
COc1ccc(CCNC(=O)c2cc3cc4c(cc3[nH]2)OCO4)cc1OC,cytopathic effect / MTT,CEM,,,EC50,>200 µM
CC1(C)CC[C@]2(C(=O)O)CC[C@]3(C)C(=CC[C@@H]4[C@@]5(C)CC[C@H](OC(=O)CC(C)(C)C(=O)O)C(C)(C)[C@@H]5CC[C@]43C)[C@@H]2C1,p24 / ELISA,H9,,IIIB,EC50,0.00086 µM
O=C(NCCc1ccc(O)c(O)c1)c1cc2cc(O)c(O)cc2[nH]1,cytopathic effect / MTT,CEM,,,EC50,>10 µM
O=C(Nc1ccc(Cl)c(C(=O)OC2CCCCC2)c1)c1ccccc1F,syncytia,CEM,RT-V106A,IIIB,EC50,2 µg/mL
C=CCOc1cc(NC(=S)c2ccsc2C)ccc1Cl,syncytia,CEM,,,EC50,0.108 µM
C[C@H]1[C@H](C)CC[C@]2(C(=O)O)CC[C@]3(C)C(=CC[C@@H]4[C@@]5(C)CC[C@H](OC(=O)C(C)(C)CC(=O)O)C(C)(C)[C@@H]5CC[C@]43C)[C@H]12,p24 / ELISA,H9,,IIIB,EC50,>30.7 µM

For reference, 7 entries again:

compound,read by,cell line,mutations,strain,endpoint,value
O=C1c2ccccc2N(Cc2ccc(Cl)c(Cl)c2)S(=O)(=O)N1Cc1ccccc1,p24,MT-4,,IIIB,EC50,>125 µM
CC1(C)CC[C@]2(C(=O)O)CC[C@]3(C)C(=CC[C@@H]4[C@@]5(C)CC[C@H](OC(=O)CC(C)(C)C(=O)O)C(C)(C)[C@@H]5CC[C@]43C)[C@@H]2C1,p24 / ELISA,H9,,IIIB,EC50,0.00086 µM
CCCCCCCCCCCCOP(=O)(OCC(=O)OCC)OC[C@H]1O[C@@H](n2cc(C)c(=O)[nH]c2=O)C[C@@H]1N=[N+]=[N-],p24,C8166,,RF,EC50,3 µM
C[C@H]1[C@H](C)CC[C@]2(C(=O)O)CC[C@]3(C)C(=CC[C@@H]4[C@@]5(C)CC[C@H](OC(=O)CC(C)(C)C(=O)O)C(C)(C)[C@@H]5CC[C@]43C)[C@H]12,p24 / ELISA,H9,,IIIB,EC50,2.1 µM
O=C1c2ccccc2N(Cc2ccccc2-c2ccccc2)S(=O)(=O)N1Cc1ccccc1,p24,CEM + CEM-SS,,IIIB,EC50,2 µM
CC1=C(C(=S)Nc2ccc(Cl)c(/C=N/OC(C)(C)C)c2)CCO1,syncytia,CEM,RT-L100I,IIIB,EC50,0.065 µg/mL
CN1CC[C@H](O)[C@@H](O)C1,cytopathic effect,CEM + CEM-SS,,BRU,EC50,>100 µg/mL

ECn is the concentration giving n% inhibition of infection, replication or growth. Neighbouring rows are from separate reports.